A mixed list of measured activities; the numbers were collected in NIAID ChemDB.

Shared fields: cytotoxicity tests; cell line: MT-2; read-out: CC50

Neighbouring rows are from separate reports. CCn is the concentration with n% toxicity to the cells. Blank or dashed fields: not listed here.

SMILES | method | value
COP(=O)(c1cc(C)cc(CCC#N)c1)c1c(C(N)=O)[nH]c2ccc(Cl)cc12 | MTS | 25.9 µM
Cc1[nH]c2ccccc2c1C(=O)C(=O)N1CCN(C(=O)c2ccccc2)CC1 | XTT | >10 µM
COc1ccc(N(C)C(=O)[C@H](Cc2ccccc2)NC(=O)Cn2c(=O)c3ccccc3n(CC(=O)N[C@@H](Cc3ccccc3)C(=O)N(C)c3ccc(OC)cc3)c2=O)cc1 | XTT | 100 µM
CC(=O)N[C@@H](Cc1cccc2ccccc12)C(=O)N[C@H](C(=O)N[C@@H](CC(C)C)[C@@H](O)CC(=O)N[C@@H](CC(C)C)C(=O)N[C@@H](Cc1ccccc1)C(N)=O)C(C)C | - | >129 µM
CNC(=O)NC[C@H]1O[C@@H](n2cnc3c(NC(=O)Nc4ccccc4)ncnc32)[C@@H]2OC(=O)C[C@@H]21 | neutral red | 58.5 µM
CCOC(=O)Nc1[nH]c2cccc(Cl)c2c1C(C)(O)C(F)(F)F | ATP | 20.5 µM
O=C(C(=O)N1CCN(C(=O)c2ccc(F)c(F)c2)CC1)c1c[nH]c2ccccc12 | XTT | >10 µM
COc1cc([N+](=O)[O-])c(S(=O)(=O)[O-])cc1N=N/C(=N\Nc1cc(S(=O)(=O)[O-])c([N+](=O)[O-])cc1OC)C(=O)Nc1ccccc1 | trypan blue | 672 µM
Cc1cc(C#CCOCCOCCOCC#Cc2cn(C3C=CC(COP(=O)(O)O)O3)c(=O)[nH]c2=O)cc(C)c1Oc1ccnc(Nc2ccc(C#N)cc2)n1 | MTT | ~1.8 nM
Nc1ccc(C2SCC(=O)N2c2ccc(Cl)cc2)cc1 | MTT | ≥154.6 µM
COc1ccc(N(CCF)C(=O)[C@H](Cc2cc(F)cc(F)c2)NC(=O)Cn2c(=O)n(CC(=O)N[C@@H](Cc3cc(F)cc(F)c3)C(=O)N(CCF)c3ccc(OC)cc3)c3ccccc32)cc1 | XTT | 100 µM
CCCCCCCC/C=C\CCCCCCCOCCOP(=O)(O)CO[C@H](CO)Cn1cnc2c(N)ncnc21 | propidium iodide | 0.2 µM
Cc1cccnc1N1C(=O)CSC1c1c(C)cccc1C | MTT | ≥182 µM
CCOC(=O)Nc1[nH]c2cc(Cl)cc(Cl)c2c1C(C)(O)C(F)(F)F | ATP | >200 µM
CCOC(=O)c1cc(O)c(O)c(O)c1 | MTS | >200 µM
COc1ccc(N(C)C(=O)[C@H](Cc2ccccc2)NC(=O)COc2nc3ccccc3n(CC(=O)N[C@@H](Cc3ccccc3)C(=O)N(C)c3ccc(OC)cc3)c2=O)cc1 | XTT | 50 µM
Clc1cc(Cl)cc(Nc2ncc(Cc3c(Cl)cccc3Cl)o2)c1 | MTT | 19 µM
C=C1CC[C@@H](OC(C)=O)[C@@]2(C)CCC3[C@](C)(CC[C@]3(O)C(C)C)C[C@]12O | MTT | 935 µM
O=C(C(=O)N1CCN(C(=O)c2ccccc2)CC1)c1c[nH]c2ccccc12 | XTT | >10 µM
Clc1ccc(Nc2nnc(Cc3c(Cl)cccc3Cl)o2)c(Cl)c1 | MTT | 45 µM
COc1ccc(N(C)C(=O)[C@H](Cc2ccccc2)NC(=O)c2ccccc2C(=O)N[C@@H](Cc2ccccc2)C(=O)N(C)c2ccc(OC)cc2)cc1 | XTT | 31.1 µM
Clc1ccc(Nc2nnc(Cc3c(Cl)cccc3Cl)o2)cc1 | MTT | 18 µM
CCOC(=O)Nc1[nH]c2cccc(Cl)c2c1C(=O)C(F)(F)F | ATP | >200 µM
Cc1ccc(C)c(CSc2c(Cl)ccc[n+]2[O-])c1 | - | 16 µg/mL
N#Cc1ccc(Nc2nnc(Nc3c(Cl)cccc3Cl)o2)cc1 | MTT | >100 µM
O=C(C(=O)N1CCN(C(=O)c2cccc(Cl)c2F)CC1)c1c[nH]c2ccccc12 | XTT | >10 µM
Cc1ccc(N(C)C(=O)[C@H](Cc2cc(F)cc(F)c2)NC(=O)NS(=O)(=O)N[C@@H](Cc2cc(F)cc(F)c2)C(=O)N(C)c2ccc(C)nc2)cn1 | XTT | 100 µM
CCOC(=O)Nc1[nH]c2cc([N+](=O)[O-])ccc2c1C(=O)C(F)(F)F | ATP | >200 µM
[N-]=[N+]=NC[C@H]1O[C@@H](n2cnc3c(NC(=O)Nc4ccccc4)ncnc32)[C@H](O)[C@@H]1CC(=O)O | neutral red | 812 µM
Nc1ncnc2c1ncn2C[C@@H](CO)OCP(=O)(O)O | propidium iodide | >100 µM
COc1ccc([C@@H]2CC(=O)c3c(O)cc(O[C@@H]4O[C@H](CO[C@@H]5O[C@@H](C)[C@H](OP(=O)(O)O)[C@@H](OP(=O)(O)O)[C@H]5O)[C@@H](OP(=O)(O)O)[C@H](OP(=O)(O)O)[C@H]4O)cc3O2)cc1O | - | >500 µg/mL
CCOC(=O)Nc1[nH]c2cc([N+](=O)[O-])ccc2c1C(O)(CC(C)=O)C(F)(F)F | ATP | >200 µM
COc1ccc(N(C)C(=O)C(Cc2ccccc2)NS(=O)(=O)CS(=O)(=O)N[C@@H](Cc2ccccc2)C(=O)N(C)c2ccc(OC)cc2)cc1 | XTT | 100 µM
Cc1cccc(CS(=O)(=O)c2cccc[n+]2[O-])c1 | - | 26 µg/mL
COc1cc(C)cc2c(-c3c(O)cc(O)c4c3C[C@H](C)N[C@H]4C)cc(-c3cc(-c4c(O)cc(O)c5c4C[C@H](C)N[C@H]5C)c4cc(C)cc(OC)c4c3O)c(O)c12 | - | >250 µM
Cc1ccc(Nc2ncc(Cc3c(F)cccc3F)o2)cc1 | MTT | >100 µM
Cc1ccc(C)c(CS(=O)(=O)c2cccc[n+]2[O-])c1 | - | 8 µg/mL
CCc1ncc(N(C)C(=O)[C@H](Cc2cc(F)cc(F)c2)NC(=O)CN2c3ccccc3N(CC(=O)N[C@@H](Cc3cc(F)cc(F)c3)C(=O)N(C)c3cnc(CC)nc3)S2(=O)=O)cn1 | XTT | 38.7 µM
O=[N+]([O-])c1ccc[n+]([O-])c1SCc1ccccc1 | - | 21 µg/mL
COc1ccc(C2SCC(=O)N2c2ccc(S(N)(=O)=O)cc2)cc1 | MTT | ≥182 µM
COc1ccc(C)cc1CS(=O)(=O)c1cccc[n+]1[O-] | - | 26 µg/mL
O=C(C(=O)N1CCN(C(=O)c2ccccc2F)CC1)c1c[nH]c2ccccc12 | XTT | >10 µM
CC1=C(C(=O)Nc2ccc(Cl)c(C(=O)OC(C)C)c2)SCCO1 | - | >40 µM
C=CCN(C(=O)[C@H](Cc1cc(F)cc(F)c1)NC(=O)c1ccccc1S(=O)(=O)N[C@@H](Cc1cc(F)cc(F)c1)C(=O)N(CC=C)c1ccc(OC)cc1)c1ccc(OC)cc1 | XTT | 100 µM
Clc1cccc(Cl)c1Cc1cnc(Nc2c(Cl)cccc2Cl)s1 | MTT | 63 µM
CCOC(=O)Nc1[nH]c2cccc(Br)c2c1C(=O)C(F)(F)F | ATP | >200 µM